Tests used:
Test in all cases: microbe, parasite or virus in culture
SARS-CoV-2 [1] = conditions: Severe acute respiratory syndrome coronavirus 2, 2019-nCoV, Vero C1008
SARS-CoV-2 [2] = conditions: Severe acute respiratory syndrome coronavirus 2, Omicron BA.1, Vero C1008
SARS-CoV-2 [3] = conditions: Severe acute respiratory syndrome coronavirus 2, BetaCoV/Shenzhen/SZTH-003/2020, Vero C1008

Cc1ccc(N)cc1C(=O)N[C@H](C)c1cccc2ccccc12
EC50 (SARS-CoV-2 [1]): 44.1 µM | EC50 (SARS-CoV-2 [2]): 80.8 µM | EC50 (SARS-CoV-2 [3]): 21 µM

Source: ChEMBL document CHEMBL5500399, “Design, Synthesis, and Biological Evaluation of 1,2,4-Oxadiazole Derivatives Containing an Aryl Carboxylic Acid Moiety as Potent Sarbecovirus Papain-like Protease Inhibitors” (J Med Chem, 2024)
